PubChem BioAssay AID1259414 | Drosophila RNAi Screening Center, 2018
The screen tested about 24,000 reagents; below is a random part of those that have a named target and a result. In the full data, about 1,210 (5%) got an active call. 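Inactive calls also include excluded dsRNAs with several or no targets, genes unexpressed in JW18, and well A1, regardless of score.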 Unmarked entries are inactive.

Aim: 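Genome-wide screen for host control of endosymbiont load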 (primary screen)
System: Drosophila JW18 cells infected with Wolbachia
Knock-down reagent: long dsRNA against Drosophila genes, 0.25 µg dsRNA per well of a 384-well plate
Timing: 5 days
Challenge: cells persistently infected with Wolbachia before knock-down; no added drug
Detection: 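Imaged fluorescence in situ signal for Wolbachia 23S rRNA per DAPI-counted host cell, given as a robust z-score within each plate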
Scale: Wolbachia per cell robust z: higher = more Wolbachia per host cell than the plate typical
Hit rule: 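Hit when robust z is 1.5 or more, or -1.5 or less, in at least two of three replicates; excludes dsRNAs with several or no targets, genes not expressed in JW18 and well A1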

predicted target | dsRNA | Wolbachia per cell robust z, rep 1 | Wolbachia per cell robust z, rep 2 | Wolbachia per cell robust z, rep 3
vilya | DRSC18588 | -1.86 | -0.538 | 0.282
unc79 | DRSC15746 | -0.574 | -0.433 | -0.0876
unc79 | DRSC25495 | 1.14 | -0.36 | -0.693
Tsp47F | DRSC07325 | 0.695 | 0.414 | 0.845
Mondo | DRSC02668 | -2.2 | -3.76 | -3.23
Mondo | DRSC22006 | -0.309 | -0.359 | -0.596
Mondo | DRSC26287 | 0.321 | -1.01 | -4.22
shot | DRSC05459 | -0.533 | -0.713 | -0.553
shot | DRSC05460 | -1.41 | -3.79 | 1.52
shot | DRSC07682 | -1.9 (active) | -1.88 | -3.96
shot | DRSC25070 | 0.516 | 1.36 | 0.271
CG12991 | DRSC19511 | -0.0332 | -2.45 | 0.509
CG12991 | DRSC28165 | -0.824 | -1.73 | -1.49
CG34038 | DRSC38892 | -0.196 | -3.84 | -5.5
Klp61F | DRSC08671 | -6.78 | 0.166 | 1.11
Klp61F | DRSC28179 | 3.25 (active) | 3.67 | 4.92
Klp61F | DRSC40778 | 0.261 | 0.785 | 0.552
CG42812 | DRSC15368 | 0.566 | -1.61 | -0.0521
GABA-B-R1 | DRSC22038 | -0.305 | 0.374 | -1.38
CG18417 | DRSC10319 | 0.636 | 1.27 | -0.541
CG18417 | DRSC23997 | -0.468 | -0.288 | -0.586
CG9588 | DRSC16504 | -0.121 | -1.06 | 0.172
SdhCL | DRSC16078 | -4.8 | 0.543 | -1.01
CG13502 | DRSC04147 | 0.323 | 0.812 | -0.533
CG13502 | DRSC26374 | 0.504 | -0.401 | -1.15
Adgf-A | DRSC10566 | -0.948 (active) | -2.45 | -2.12
Adgf-A | DRSC24552 | -0.123 | 0.932 | -0.000399
Cpr47Eb | DRSC06345 | 1.22 | 0.355 | 1.32
Sec16 | DRSC19788 | 0.00911 | 1.07 | 0.938
CG12278 | DRSC14494 | 0.338 | -0.191 | -0.13
CG32454 | DRSC11652 | -2.79 | -0.615 | 0.101
Alg12 | DRSC16416 | 0.299 | -1.83 | 0.348

Part of the list above, limited to “Wolbachia per cell robust z, rep 2”.
GABA-B-R1 [DRSC22038]	0.374
CG18417 [DRSC10319]	1.27
CG18417 [DRSC23997]	-0.288
CG9588 [DRSC16504]	-1.06
SdhCL [DRSC16078]	0.543
CG13502 [DRSC04147]	0.812
CG13502 [DRSC26374]	-0.401
Adgf-A [DRSC10566]	-2.45 (active)
Adgf-A [DRSC24552]	0.932
Cpr47Eb [DRSC06345]	0.355
Sec16 [DRSC19788]	1.07
CG12278 [DRSC14494]	-0.191
CG32454 [DRSC11652]	-0.615

The listing continues:
predicted target | dsRNA | Wolbachia per cell robust z, rep 1 | Wolbachia per cell robust z, rep 2 | Wolbachia per cell robust z, rep 3
Hem | DRSC11865 | -2.12 (active) | -2.64 | 0.518
Vps25 | DRSC06486 | -0.391 | -2.34 | -0.175
FarO | DRSC18475 | -0.533 | 0.104 | -0.032
CG17030 | DRSC08503 | 0.291 | -0.0584 | -4.77
Or49a | DRSC07493 | 0.00443 | 0.0983 | -0.248
Drsl2 | DRSC08160 | 0.757 | -1.94 | 1.79
Drsl2 | DRSC25541 | -0.354 | -0.883 | -1.25
ana | DRSC07579 | 1.08 | 0.694 | -0.0135
ana | DRSC24236 | 0.983 | -0.547 | 1.49
ana | DRSC38967 | -0.377 | 0.481 | -0.431
RNASEK | DRSC21641 | 0.66 | -0.83 | 0.388
Acp1 | DRSC01854 | 0.191 | 0.522 | 0.508
CG9117 | DRSC03141 | -0.644 | -1.07 | -0.388
ValRS | DRSC06864 | 1.13 | -0.255 | 1.04
CG13384 | DRSC02258 | 0.0468 | 0.436 | 1.14
NetB | DRSC20262 | -0.209 | -0.172 | -0.139
NetB | DRSC26437 | -0.108 | -0.41 | 0.367
CG43184 | DRSC36531 | -0.88 | -3.41 | -0.296
RpL17 | DRSC18293 | 5.52 (active) | 3.32 | 2.83
RpL17 | DRSC29971 | 3.62 (active) | 1.94 | 4.26
Alas | DRSC04044 | -0.0885 | 0.628 | 0.745
CG10011 | DRSC14174 | -0.911 | 1.15 | -0.751
CG8460 | DRSC03090 | -0.416 | -3.36 | -0.121
Cyp9b1 | DRSC07389 | 0.804 | -2.33 | -0.707
Cyp9b1 | DRSC24745 | 1.51 | -0.783 | 0.811
melt | DRSC11367 | -0.187 | -3.39 | 0.147
CG31441 | DRSC15723 | 1.03 | 0.0697 | -0.0583
CG31441 | DRSC27463 | -0.241 | 0.247 | 0.257
CG14857 | DRSC14981 | -0.57 | -0.423 | -1.79
2mit | DRSC14194 | -3.96 | -0.84 | -1.61
2mit | DRSC15224 | 0.00572 | 0.778 | 0.313
CG42239 | DRSC41344 | 0.59 | 1.49 | 0.597
apt | DRSC23278 | 0.877 | 0.455 | -7.02
apt | DRSC26181 | -0.513 | -0.52 | 0.31
Ih | DRSC05477 | -2.43 | 0.206 | 0.357
Ih | DRSC07445 | -0.78 | 0.565 | -0.447
Ih | DRSC22956 | 0.597 | -0.233 | -1.65
Ih | DRSC24809 | -0.719 | -0.397 | 0.0885
Ih | DRSC27393 | -0.0234 | 0.448 | 0.00468
Ih | DRSC28372 | -0.0758 | 0.431 | -0.246
Ih | DRSC39084 | 0.0947 | -0.765 | -0.518
PEK | DRSC12361 | 0.147 | 1.58 | -0.505
Drsl5 | DRSC08159 | 0.675 | -3.15 | -0.277
CG6738 | DRSC16104 | -2.64 | -0.146 | -0.0983
CG6738 | DRSC27802 | -0.151 | 0.924 | 0.072
dx | DRSC18767 | -0.00895 | -0.175 | -0.868
dx | DRSC24880 | -0.112 | 0.215 | -0.279
Ttc30 | DRSC02818 | -1.1 | 0.872 | -0.16
Ttc30 | DRSC25846 | -0.587 | 0.269 | -0.777
CG31404 | DRSC15497 | 0.086 | -0.0517 | -5.98
CG31404 | DRSC28438 | 0.0175 | 0.194 | 0.938
Ir7e | DRSC18011 | 0.129 | 0.488 | 0.0891
nrv1 | DRSC03382 | -1.47 | 0.18 | -1.87
CG11475 | DRSC04113 | -1.85 | -1.14 | 0.332
CG11475 | DRSC24420 | -5.88 | -0.138 | 0.498
